A mixed list of measured activities; the numbers were collected in NIAID ChemDB.

All rows: toxicity to cultured cells; cell line: TZM-bl; read-out: CC50

Rows are shuffled and stem from different studies. An empty or dashed field is not shown. CCn is the concentration with n% toxicity to the cells.

structure	method	value
NCCC(NC(=O)c1ccc(-c2ccc(C(F)(F)F)nn2)[nH]1)c1nc(CO)cs1	MTS / absorbance	>73 µM
O=[N+]([O-])c1ccccc1/C=C/c1cc(Cl)c2cc(Cl)ccc2n1	MTT	47.03 µM
COc1ccc(-c2nnc(-c3ccc4cccc(OC)c4n3)o2)cc1OC	MTT	134 µM
O=C(/C=C/c1ccc(O)c(O)c1)c1ccc(NC(=O)c2ccccc2)cc1		50.2 µM
O=C1NC(=NCc2cccc(F)c2)S/C1=C\c1ccc(-c2ccc(C(=O)O)c(O)c2)o1	XTT	>50 µM
COc1ccc(/C=C/c2cc(Cl)c3ccccc3n2)cc1	MTT	53.08 µM
Cc1nc(C(CN(C)C)NC(=O)c2ccc(-c3ccc(Cl)cc3)[nH]2)sc1CO	XTT / absorbance	>40 µM
COc1cccc2ccc(-c3nnc(-c4cccnc4)o3)nc12	MTT	50.93 µM
Cc1nc(C(CN)NC(=O)C(=O)Nc2ccc3c(c2)OCO3)sc1CO	MTS	≥750 µM
CC(C)C[C@H](NC(=O)c1ccc(NC(=O)[C@@H](N)Cc2c[nH]c3ccccc23)c(OCCc2c[nH]c3ccccc23)c1)C(=O)O	absorbance	>50 µM
Cc1cc(C)cc(Cc2c(I)c(=O)[nH]c(=O)n2COCc2ccccc2)c1	XTT	76.4 µM
O=C1NC(=NCc2ccc(Cl)cc2)S/C1=C\c1ccc(-c2ccc(C(=O)O)c(O)c2)o1	XTT	>50 µM
C[C@@H]1O[C@H]2O[C@H]3[C@@H](C)OC(c4ccc5c(c4O)C(=O)c4ccc(C[C@@](C)(O)CC(=O)O)c(O)c4C5=O)C[C@H]3O[C@H]2CC1=O	absorbance	47.6 µM
C=C(C)C(=O)N(CC1CCCCC1)c1ccc(C[C@H](NC(=O)OCC2c3ccccc3-c3ccccc32)C(=O)N2CCCC2C(=O)O)cc1	XTT	60 µM
Fc1cccc(N=Cc2cc3ccccc3nc2Nc2cccc(F)c2)c1	MTT	56.1 µM
C=CCCC(=O)N(CC1CCCCC1)c1ccc(C[C@H](NC(=O)OCC2c3ccccc3-c3ccccc32)C(=O)O)cc1	XTT	>69 µM
Cc1cc(/C=C/C#N)cc(C)c1Oc1ccc([N+](=O)[O-])c(Nc2ccc(C#N)cc2)n1	XTT	48.66 µM
Cc1cc(/C=C/C#N)cc(C)c1Oc1nc(N)nc(Nc2ccc(C#N)cc2)n1	WST	19.13 µM
CCN[C@@H]1C[C@H](N)[C@@H](O[C@H]2OC(CN)=CC[C@H]2N)[C@H](O)[C@H]1O[C@H]1OC[C@](C)(O)[C@H](NC)[C@H]1O		23.1 µM
Cc1cc(/C=C\C#N)cc(C)c1Nc1nc(N)nc(Nc2ccc(C#N)cc2)n1	WST	30.83 µM
Oc1cccc2ccc(/C=N/Nc3ccc(C(F)(F)F)cc3)nc12	MTT	50.29 µM
Cc1nc(C(CN(C)C)NC(=O)c2ccc(-c3ccc(Cl)c(F)c3)[nH]2)sc1CO	XTT / absorbance	>40 µM
COc1cc(-c2ccc(C(=O)NC(CCN)c3nc(CO)cs3)[nH]2)ccn1	MTS / absorbance	>133 µM
Cc1cc(C)c(Nc2ccnc(Nc3ccc(C#N)cc3)n2)c(C)c1	WST	2.88 µM
Cc1ccc(-c2ccc(C(=O)NC(CN(C)C)c3nc(C)c(CO)s3)[nH]2)cc1F	XTT / absorbance	>40 µM
NCC(NC(=O)c1ccc(-c2ccc(C(F)(F)F)cc2)[nH]1)c1ncc(CO)s1	MTS / absorbance	34 µM
Cc1cc(C)c(Nc2ccnc(Nc3ccc(C#N)cc3)n2)c(C)c1	WST / absorbance	2.524 µM
COc1ccc(/C=C/c2cc(Cl)c3ccccc3n2)c(OC)c1	MTT	40.52 µM
N=C1Sc2ccccc2C2=NCCCN12		>300 µM
Cc1ccc(C(=O)N(CC2CCCCC2)c2ccc(C[C@H](NC(=O)OCC3c4ccccc4-c4ccccc43)C(=O)N3CCCC3C(=O)O)cc2)o1	XTT	>57 µM
Cc1cc(C)c(Nc2ccnc(Nc3ccc(C#N)cc3)n2)c(C)c1	MTT / absorbance	20.4 µM
NCC(NC(=O)c1ccc(-c2ccc(C(F)(F)F)cc2)[nH]1)c1ncc(COCC(O)CO)s1	MTS	61.9 µM
CCC(C)SSc1ncc[nH]1	XTT	40.4 µM
Cc1cc(/C=C/C#N)cc(C)c1Oc1nc(Nc2ccc(C#N)cc2)nc(N2CCCCC2)n1	WST	>100 µM
Cc1cc(C)cc(N/N=C/c2ccc3cccc(O)c3n2)c1	MTT	192 µM
COc1cccc2ccc(/C=C/C(=O)Nc3ccc(Cl)cc3)nc12	MTT	128 µM
NC[C@H](NC(=O)c1ccc(-c2ccc(C(F)(F)F)cn2)[nH]1)c1ncc(CO)s1	MTS	>73 µM
Cc1cccc(N/N=C/c2ccc3cccc(O)c3n2)c1C	MTT	19.98 µM
COc1cc2c(=O)[nH]c(-c3ccc[nH]3)nc2c(OC)c1OC	fluorescence	68.6 µM
CCc1ccccc1N/N=C/c1ccc2cccc(O)c2n1	MTT	64.42 µM
Clc1ccc2nc(/C=C/c3ccc(OCc4ccccc4)cc3)cc(Cl)c2c1	MTT	63.5 µM
Cc1cn(C2CC(n3nnc(C4CC4)c3C3(C(F)(F)F)OC(=O)Nc4ccc(Cl)cc43)C(CO)O2)c(=O)[nH]c1=O	MTS	63.83 µg/mL
Clc1cc(/C=C/c2cc3ccccc3o2)nc2ccccc12	MTT	70.97 µM
Cc1cc(CCC#N)cc(C)c1Oc1cc(Nc2ccc(C#N)cc2)c(N)cc1S(N)(=O)=O	XTT	11.1 µM
CC(C)c1ccc(N/N=C/c2ccc3cccc(O)c3n2)cc1	MTT	72.05 µM
Cc1ccc(N=Cc2cc3ccccc3nc2Nc2ccc(C)cc2)cc1	MTT	134 µM
Oc1cccc2ccc(/C=N/Nc3ccc(F)cc3)nc12	MTT	96.7 µM
CC(C)=CCc1cc(C(O)C2NC(=O)CNC(=O)C(Cc3c[nH]c4ccccc34)NC(=O)C3CCCN3C(=O)CNC(=O)C(C(C)C)CC(=O)CNC2=O)ccc1O	absorbance	>100 µg/mL
CC(=O)N1CCCCC1C(NC(=O)C(=O)Nc1ccc(Cl)cc1)c1nc(C)c(CCO)s1	XTT	>84 µM
COc1cccc(/C=C/c2cc(Cl)c3cc(Cl)ccc3n2)c1OC	MTT	19.71 µM
COc1cccc2ccc(-c3nnc(-c4ccc(C(C)(C)C)cc4)o3)nc12	MTT	43.15 µM
COc1ccc(/C=C/c2cc(Cl)c3cc(Cl)ccc3n2)c(OC)c1	MTT	24.98 µM
NCCC(NC(=O)c1ccc(-c2ccc(C(F)(F)F)cn2)[nH]1)c1csc(C(=O)NCCO)n1	MTS / absorbance	>106.7 µM
Cc1cc(/C=C/C#N)cc(C)c1Nc1nc(N)nc(Nc2ccc(C#N)cc2)n1	WST	34.65 µM
O=C1NC(=NCc2ccc(F)cc2)S/C1=C\c1ccc(-c2ccc(C(=O)O)c(O)c2)o1	XTT	>50 µM
NC[C@H](NC(=O)c1ccc(-c2ccc(Cl)cn2)[nH]1)c1ncc(CO)s1	MTS	>132 µM
COc1ccc(-c2nnc(-c3ccc4cccc(OC)c4n3)o2)cc1	MTT	413 µM
NC[C@@H](NC(=O)c1ccc(-c2ccc(C(F)(F)F)cn2)[nH]1)c1ncc(CO)s1	MTS	>73 µM
COc1cc(C[C@@H]2C(=O)N[C@@H](C(C)C)C(=O)O[C@H](c3ccccc3)[C@H](C)/C=C/C=C(\C)C(OC)CCC/C=C(\C)C(=O)C(C)C(=O)N2C)ccc1O		0.14 µM
Clc1ccc2nc(/C=C/c3ccc4ccccc4c3)cc(Cl)c2c1	MTT	22.27 µM
CCCCCCCCCCCCCCCCCC1N[C@@H](CO)[C@H](O)[C@H](O)[C@@H]1O	resazurin	24 µM

Repeating the first 8 entries:

{"structure": "NCCC(NC(=O)c1ccc(-c2ccc(C(F)(F)F)nn2)[nH]1)c1nc(CO)cs1", "method": "MTS / absorbance", "value": ">73 µM"}
{"structure": "O=[N+]([O-])c1ccccc1/C=C/c1cc(Cl)c2cc(Cl)ccc2n1", "method": "MTT", "value": "47.03 µM"}
{"structure": "COc1ccc(-c2nnc(-c3ccc4cccc(OC)c4n3)o2)cc1OC", "method": "MTT", "value": "134 µM"}
{"structure": "O=C(/C=C/c1ccc(O)c(O)c1)c1ccc(NC(=O)c2ccccc2)cc1", "value": "50.2 µM"}
{"structure": "O=C1NC(=NCc2cccc(F)c2)S/C1=C\\c1ccc(-c2ccc(C(=O)O)c(O)c2)o1", "method": "XTT", "value": ">50 µM"}
{"structure": "COc1ccc(/C=C/c2cc(Cl)c3ccccc3n2)cc1", "method": "MTT", "value": "53.08 µM"}
{"structure": "Cc1nc(C(CN(C)C)NC(=O)c2ccc(-c3ccc(Cl)cc3)[nH]2)sc1CO", "method": "XTT / absorbance", "value": ">40 µM"}
{"structure": "COc1cccc2ccc(-c3nnc(-c4cccnc4)o3)nc12", "method": "MTT", "value": "50.93 µM"}